Laboratory results taken from PMC3114948 (Virology, 2011).

Protein sequences, listed by entry. Tags and fused reporters are not part of them.
UniProt P03468, whole entry, looked up: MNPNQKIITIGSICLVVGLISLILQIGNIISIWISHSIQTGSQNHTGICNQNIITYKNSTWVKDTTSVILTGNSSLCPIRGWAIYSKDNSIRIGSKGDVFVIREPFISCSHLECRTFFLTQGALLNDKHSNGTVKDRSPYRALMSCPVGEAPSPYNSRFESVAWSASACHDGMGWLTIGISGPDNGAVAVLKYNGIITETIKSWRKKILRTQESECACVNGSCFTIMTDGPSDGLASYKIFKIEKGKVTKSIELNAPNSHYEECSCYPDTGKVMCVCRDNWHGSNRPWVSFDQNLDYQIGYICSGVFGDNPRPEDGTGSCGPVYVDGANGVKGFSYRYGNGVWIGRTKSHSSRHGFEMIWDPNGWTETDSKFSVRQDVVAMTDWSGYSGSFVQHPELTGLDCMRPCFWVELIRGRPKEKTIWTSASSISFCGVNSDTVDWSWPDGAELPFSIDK

Biological target: neuraminidase of A/PR8 (H1N1) (Influenza A virus, UniProt P03468)
Format: biochemical, human influenza A virus A/Puerto Rico/34/8
Conditions: read-out: IC50 (estimated from % inhibition)

Which IC50 does the source give for “2-deoxy-2,3-dehydro-N-glycolylneuraminic acid [Neu5Gc2en]” here?
The IC50 was ~100 µM.
